Paper PMC7459591 (Marine Drugs, 2020)
Several values for one entry are separate records, joined by “and”; a condition that tells them apart may be missing. Equal entries are not always repeated. Only a part of the results on these compounds is given; other tests are left out.

Amino acid sequences for entries named in this document (tags omitted).
UniProt P22001, whole entry: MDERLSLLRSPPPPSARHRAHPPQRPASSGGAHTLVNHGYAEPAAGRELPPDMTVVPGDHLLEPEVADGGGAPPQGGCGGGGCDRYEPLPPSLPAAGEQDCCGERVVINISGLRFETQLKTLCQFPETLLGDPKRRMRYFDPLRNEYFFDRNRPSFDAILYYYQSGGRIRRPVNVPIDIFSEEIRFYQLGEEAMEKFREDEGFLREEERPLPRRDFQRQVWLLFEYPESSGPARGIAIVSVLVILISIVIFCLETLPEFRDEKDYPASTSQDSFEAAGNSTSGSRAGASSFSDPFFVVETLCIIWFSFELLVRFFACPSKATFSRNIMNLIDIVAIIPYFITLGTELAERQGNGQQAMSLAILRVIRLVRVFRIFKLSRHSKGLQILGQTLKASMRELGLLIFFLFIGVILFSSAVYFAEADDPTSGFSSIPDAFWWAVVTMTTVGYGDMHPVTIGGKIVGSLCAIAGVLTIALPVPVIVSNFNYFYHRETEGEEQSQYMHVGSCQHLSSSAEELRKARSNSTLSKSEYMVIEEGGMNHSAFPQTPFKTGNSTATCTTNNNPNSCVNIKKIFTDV
UniProt P17658, whole entry: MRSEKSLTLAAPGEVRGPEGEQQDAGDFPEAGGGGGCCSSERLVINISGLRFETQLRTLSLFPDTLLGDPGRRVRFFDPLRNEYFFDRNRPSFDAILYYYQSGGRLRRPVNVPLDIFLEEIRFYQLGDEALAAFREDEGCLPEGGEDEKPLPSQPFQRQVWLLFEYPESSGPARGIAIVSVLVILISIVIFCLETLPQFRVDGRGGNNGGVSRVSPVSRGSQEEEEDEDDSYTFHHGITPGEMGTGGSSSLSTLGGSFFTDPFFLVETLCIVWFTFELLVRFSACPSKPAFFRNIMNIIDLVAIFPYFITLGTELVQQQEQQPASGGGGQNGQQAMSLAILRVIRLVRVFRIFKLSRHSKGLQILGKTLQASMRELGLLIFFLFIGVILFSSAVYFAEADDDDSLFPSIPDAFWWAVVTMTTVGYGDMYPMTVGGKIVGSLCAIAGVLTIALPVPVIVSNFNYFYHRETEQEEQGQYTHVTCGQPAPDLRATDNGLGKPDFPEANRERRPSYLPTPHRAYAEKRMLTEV

Columns and labels:
human Kv1.3 channel = human Kv1.3 channel (Homo sapiens, UniProt P22001); assay: Two-electrode voltage clamp of Kv1.3 expressed in Xenopus oocytes
Procedure: (§1) cDNA of the clones for human Kv1.3 to Kv1.6 channels in vector pSGEM, resistant to ampicillin, were linearized with NotI and SpHI. Then, the products were purified using a QIAquick PCR purification Kit according the protocol by Qiagen (Hilden, Germany). cDNAs were transcribed in vitro with the T7 polymerase (mMessage mMachine Kit; Ambion Inc., Austin, TX, USA). cRNA was purified using a Qiagen RNeasy kit (Hilden, Germany). Five nanograms of cRNA was injected into each oocyte and used for voltage-clamp recording 1–2 days after injection. Sexually mature Xenopus leavis female frogs were kept and handled according to the institutional bioethics committee requirements. Whole-cell currents were recorded under two-electrode voltage clamp control using an OC-725C clamp amplifier (Warner Instruments, CT, USA). The intracellular electrodes were filled with 3 M KCl. Potassium currents were generated by de-polarizations to 10 mV for 1 s every 20 s with a membrane potential held at -80 mV. The bath solution was ND96, consisting of 96 mM NaCl, 2.0 mM KCl, 1.8 mM CaCl2, 1.0 mM MgCl2, and 5 mM HEPES (pH 7.5). CNF-Sr3 was diluted in ND96 and directly applied (3 μL) to the (static) bath chamber (30 μL). All electrophysiological measurements were performed at room temperature (~22 °C).
(§2) Measurements are reported as the mean ± SEM of three independent experiments.

human Kv1.4 channel = assay: Two-electrode voltage clamp of Kv1.4 expressed in Xenopus oocytes; settings: 10 µM
Procedure: as §1, §2

human Kv1.5 channel = assay: Two-electrode voltage clamp of Kv1.5 expressed in Xenopus oocytes; settings: 10 µM
Procedure: as §1, §2

human Kv1.6 channel = human Kv1.6 channel (Homo sapiens, UniProt P17658); assay: Two-electrode voltage clamp of Kv1.6 expressed in Xenopus oocytes
Procedure: as §1, §2

Shaker K^+ channel = settings: read-out: Kd on Shaker channel, sentence has no own ref, ref 1 is cited for CNF-Sr3 on Shaker; cited from earlier work
Eag = settings: cited from earlier work
hEag K^+ channel = settings: cited from earlier work
skinned Xenopus oocytes = settings: cited from earlier work

CSCC[C@H](NC(=O)[C@@H]1CCCN1C(=O)CNC(=O)[C@H](CO)NC(=O)[C@@H](NC(=O)[C@H](C)N)[C@@H](C)O)C(=O)NCC(=O)N[C@@H](Cc1c[nH]c2ccccc12)C(=O)N[C@@H](CC(C)C)C(=O)N1CCC[C@H]1C(=O)N[C@H](C(=O)N[C@@H](Cc1ccccc1)C(=O)N[C@@H](Cc1ccc(O)cc1)C(=O)N[C@@H](CCCNC(=N)N)C(=O)N[C@@H](Cc1ccccc1)C(N)=O)C(C)C [CNF-Sr3, Conorfamide-Sr3]
Inhibition of current, Kv1.3 (human Kv1.3 channel; 30 µM): almost all the current was inhibited irreversibly
Hill equation n, Kv1.3 (human Kv1.3 channel; concentration-response fit): 2.1
Time to block the current, Kv1.3 compared with Kv1.6 (human Kv1.3 channel; time course of inhibition, Kv1.3 than Kv1.6): takes twice as much to block the current for Kv1.3 than Kv1.6
Effect on Kv1.4 (human Kv1.4 channel): no significant effect
Effect on Kv1.5 (human Kv1.5 channel): no significant effect
Inhibition of current, Kv1.6 (human Kv1.6 channel; 30 µM): almost all the current was inhibited irreversibly
Affinity ratio Kv1.6 over Kv1.3 (human Kv1.6 channel; Kv1.6 with respect to Kv1.3, from IC50): 10 fold and ~ 10 fold
Hill equation n, Kv1.6 (human Kv1.6 channel; concentration-response fit): 1.08
Kd (Shaker K^+ channel): 2700 nM
Effect on Eag (Eag): not to have any significant effect
Effect on hEag K^+ channel (hEag K^+ channel): no activity
Leak current (skinned Xenopus oocytes): does not induce a leak current
